Numbering of substitutions follows the chain as printed.
Legend:
[1] = molecular target: T1, rASIC1a S83T/Q84E/R175C/E177G (rat) (UniProt P55926)
T1 sequence: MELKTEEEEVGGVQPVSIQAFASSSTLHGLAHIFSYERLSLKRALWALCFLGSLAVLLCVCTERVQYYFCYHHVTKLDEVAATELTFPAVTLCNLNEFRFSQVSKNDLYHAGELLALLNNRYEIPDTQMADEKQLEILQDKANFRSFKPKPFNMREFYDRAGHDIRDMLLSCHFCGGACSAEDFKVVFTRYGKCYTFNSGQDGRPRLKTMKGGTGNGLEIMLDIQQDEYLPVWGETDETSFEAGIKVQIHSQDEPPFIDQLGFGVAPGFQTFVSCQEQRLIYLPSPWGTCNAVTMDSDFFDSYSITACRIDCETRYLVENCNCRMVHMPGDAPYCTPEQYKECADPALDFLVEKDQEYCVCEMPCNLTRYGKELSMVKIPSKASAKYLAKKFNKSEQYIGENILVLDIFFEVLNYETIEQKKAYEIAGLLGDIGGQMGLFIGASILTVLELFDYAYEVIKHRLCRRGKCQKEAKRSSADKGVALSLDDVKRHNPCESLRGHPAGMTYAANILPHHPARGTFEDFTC

[2] = molecular target: T2, rat acid-sensing ion channel 1b (rat)
T2 sequence (P55926 whole entry, looked up): T1 sequence with T83S, E84Q, C175R, G177E

Q: What does the source list for Ma-3 M16A (peptide)?
A: I/I (control) of pH 6-evoked currents with 300 nM peptide (I/I (control)) [1]: 0.56; I/I (control) of pH 6-evoked currents with 300 nM peptide (I/I (control)) [2]: 0.8

— publication PMC11335189, “Revealing molecular determinants governing mambalgin-3 pharmacology at acid-sensing ion channel 1 variants” (Cellular and Molecular Life Sciences: CMLS, 2024)
